Potato spindle tuber viroid, loop 15: variant abundance in plants

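Three N. benthamiana plants were inoculated with the whole mutant pool. Samples came from the inoculated region at 5 days, the leaf margin at 10 and upper systemic leaves at 12.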

Region: loop 15 of PSTVd (intermediate strain), upper and lower strand joined, each 5' to 3', the first 7 letters being the upper strand, closing pairs included. Wild type: GGAAACCGCUACUAC. Varied positions (N): GGAAACCGNNNNNNC.

Values are reads per thousand in the sample; higher means more abundant, 0 means not found. Each site shows the three plants. "Pool" is the share in the plasmid pool used as inoculum, on the same scale. The inoculated region was read from the minus strand, the other sites from the plus strand. The authors trace changes outside the varied positions to PCR and sequencing errors or to mutation in the plant; presence does not show that a variant is infectious alone. Samples held 43,870 to 66,106 reads, so the smallest values rest on one or two reads. For reference, wild type rose from 33.9 per thousand in the pool to 202, 200, 159 (inoculated region), 724, 746, 710 (leaf margin) and 856, 883, 880 (systemic leaves).

GGAAACCGAAUGCGC (pool 0.256) read inoculated region 0.131 / 0.145 / 0.0762; leaf margin 0.0162 / 0 / 0.0200; systemic leaves 0 / 0 / 0.
GGAAACCGCCUUCCC (pool 0.256) read inoculated region 0.0491 / 0.177 / 0.133; leaf margin 0.0162 / 0 / 0; systemic leaves 0 / 0 / 0.
GGAAACCGGUUGCUC (pool 0.272) read inoculated region 0.0819 / 0.0482 / 0.133; leaf margin 0.0162 / 0 / 0; systemic leaves 0.0161 / 0 / 0.
GGAAACCGUCUUGGC (pool 0.176) read inoculated region 0.180 / 0.112 / 0.171; leaf margin 0 / 0.0223 / 0; systemic leaves 0 / 0 / 0.
GGAAACCGGGUGAAC (pool 0.256) read inoculated region 0.0491 / 0.0643 / 0.133; leaf margin 0 / 0 / 0.0200; systemic leaves 0 / 0 / 0.
GGAAACCGCAUUUUC (pool 0.288) read inoculated region 0.164 / 0.112 / 0.0762; leaf margin 0 / 0.0445 / 0.0200; systemic leaves 0.0161 / 0.0151 / 0.
GGAAACCGAAGGGUC (pool 0.208) read inoculated region 0.0328 / 0.0803 / 0.133; leaf margin 0.0162 / 0.0223 / 0; systemic leaves 0 / 0 / 0.
GGAAACCGAAACGUC (pool 0.256) read inoculated region 0.131 / 0.0964 / 0.152; leaf margin 0 / 0 / 0; systemic leaves 0 / 0 / 0.
GGAAACCGUGACCAC (pool 0.320) read inoculated region 0.573 / 0.434 / 0.362; leaf margin 0.210 / 0.156 / 0.120; systemic leaves 0.0483 / 0.0605 / 0.0912.
GGAAACCGGCCUAUC (pool 0.288) read inoculated region 0.164 / 0.0803 / 0.0762; leaf margin 0 / 0 / 0; systemic leaves 0.0161 / 0 / 0.
GGAAACCGGCGUGAC (pool 0.304) read inoculated region 0.115 / 0.0964 / 0.190; leaf margin 0 / 0 / 0.0200; systemic leaves 0 / 0 / 0.
GGAAACCGGCGACCC (pool 0.224) read inoculated region 0.0819 / 0.193 / 0.133; leaf margin 0 / 0 / 0.0200; systemic leaves 0.0322 / 0 / 0.
GGAAACCGGUCGAAC (pool 0.272) read inoculated region 0.393 / 0.193 / 0.381; leaf margin 0.0970 / 0.156 / 0.160; systemic leaves 0.0161 / 0 / 0.
GGAAACCGUCAGAUC (pool 0.304) read inoculated region 0.344 / 0.289 / 0.343; leaf margin 0.0647 / 0.0668 / 0.160; systemic leaves 0.0161 / 0.0151 / 0.0228.
GGAAACCGCAUAAGC (pool 0.192) read inoculated region 0.0491 / 0.112 / 0.0762; leaf margin 0.0162 / 0 / 0; systemic leaves 0 / 0 / 0.
GGAAACCGGUUUCGC (pool 0.192) read inoculated region 0.0819 / 0.145 / 0.0381; leaf margin 0.0162 / 0 / 0.0200; systemic leaves 0.0161 / 0 / 0.
GGAAACCGGCAGGCC (pool 0.224) read inoculated region 0.0983 / 0.129 / 0.114; leaf margin 0.0162 / 0.0223 / 0; systemic leaves 0 / 0 / 0.
GGAAACCGCACGAGC (pool 0.320) read inoculated region 0.147 / 0.257 / 0.0952; leaf margin 0 / 0 / 0.0200; systemic leaves 0.0161 / 0 / 0.
GGAAACCGUAAUGUC (pool 0.320) read inoculated region 0.213 / 0.241 / 0.228; leaf margin 0 / 0 / 0; systemic leaves 0 / 0 / 0.
GGAAACCGGUGAUUC (pool 0.192) read inoculated region 0.0983 / 0.112 / 0.133; leaf margin 0 / 0.0223 / 0.0200; systemic leaves 0 / 0 / 0.
GGAAACCGCGUUUCC (pool 0.192) read inoculated region 0.0983 / 0.0964 / 0.0762; leaf margin 0 / 0 / 0; systemic leaves 0 / 0 / 0.0228.
GGAAACCGCACACAC (pool 0.192) read inoculated region 0.0491 / 0.112 / 0.0190; leaf margin 0 / 0 / 0.0200; systemic leaves 0 / 0 / 0.
GGAAACCGGCUAAGC (pool 0.240) read inoculated region 0.0983 / 0.129 / 0.0571; leaf margin 0.0162 / 0.0223 / 0; systemic leaves 0.0161 / 0 / 0.
GGAAACCGUUUACUC (pool 0.272) read inoculated region 0.115 / 0.0482 / 0.0762; leaf margin 0 / 0.0223 / 0.0200; systemic leaves 0.0161 / 0 / 0.

A selection of 2 entries from above:

GGAAACCGGCGACCC (pool 0.224): inoculated region 0.0819 / 0.193 / 0.133; leaf margin 0 / 0 / 0.0200; systemic leaves 0.0322 / 0 / 0.
GGAAACCGCAUAAGC (pool 0.192): inoculated region 0.0491 / 0.112 / 0.0762; leaf margin 0.0162 / 0 / 0; systemic leaves 0 / 0 / 0.

From the data files of Wu et al. 2024, doi:10.1371/journal.ppat.1012142.